A mixed list of measured activities; the numbers were collected in NIAID ChemDB.

All rows: tests in culture; organism: Hepatitis B virus

Percent inhibition refers to the dose given; in toxicity tests it is the harm to the cells. Two numbers with a dash give a range or band. Lines come from different laboratories, so protocols vary. An empty or dashed field is not shown. ECn: concentration that inhibits the pathogen or its effect by n%.

compound | strain or isolate | cell line | read by | read-out | tested at | value
COC1OC(Cn2cc(C)c(=O)nc2SC)C(O)C1O | - | HepG2 2.2.15 | ELISA | inhibition | 100 µM | 90.04%
CNS(=O)(=O)N1CC[C@@H](NS(=O)(=O)c2cn(C)c(C(=O)Nc3ccc(F)c(F)c3)c2F)C1 | - | HepAD38 cells | PCR | EC50 | - | <0.1 µM
CCCCCCCCCCCC(=O)Nc1nc(N)nc2c1ncn2[C@H]1CO[C@@H](COP(=O)(N[C@@H](C)C(=O)OCC)Oc2ccccc2)O1 | - | HepAD38 | PCR | EC90 | - | ≥10 µM
CNS(=O)(=O)N1CC[C@@H](NS(=O)(=O)c2cn(C)c(C(=O)Nc3ccc(F)c(Cl)c3F)c2F)C1 | - | HepAD38 cells | PCR | EC50 | - | <0.1 µM
CN(CC(=O)Nc1ccc(Cl)cc1Cl)C(=O)c1ccccn1 | - | HepG2.2.15 | PCR | EC90 | - | >100 µM
C[C@H](NC(=O)C1C2CN(C(=O)c3ccc(Br)c(Cl)c3)CCN2C(=O)N1c1ccc(OC2COC2)cc1)c1ccccc1 | - | HepG2.117 | PCR | EC50 | - | 0.5–5 µM
COC1OC(Cn2ccc(=O)nc2SC)C(O)C1O | - | HepG2 2.2.15 | ELISA | inhibition | 100 µM | 25.3%
CCNC(=O)C(=O)N1CC[C@@H](NS(=O)(=O)c2cn(C)c(C(=O)Nc3ccc(F)c(F)c3)c2F)[C@@H](F)C1 | - | HepAD38 cells | PCR | EC50 | - | <0.1 µM
C[C@@]12C(=O)OC(=O)[C@]1(C)C1CCC2O1 | - | HepG2.2.15 | PCR | inhibition | 0.003 µM | <40%
CCOC(=O)[C@H](C)NP(=O)(OC[C@@H]1OC[C@H](n2cnc3c(=O)[nH]c(N)nc32)O1)Oc1ccccc1 | Wild | AD38 | - | EC90 | - | 2 µM
O=C(O)c1ccc(-c2cccc(/C=N/NC(=O)c3cc(O)c(O)c(O)c3)c2)cc1 | gtA | Huh7 | - | inhibition | 10 µM | >43%
CNC(=O)C(=O)N1CC[C@@H](NS(=O)(=O)c2c(F)c(C(=O)Nc3ccc(F)c(F)c3)n(C)c2C)C1 | - | HepAD38 cells | PCR | EC50 | - | <0.1 µM
O=C(O[C@@H]1Cc2c(O)cc(O)cc2O[C@@H]1c1cc(O)c(O)c(O)c1)c1cc(O)c(O)c(O)c1 | - | - | PCR | inhibition | 100 µM | 72.4%
C=C1[C@H](CO)[C@@H](O)C[C@@H]1n1cnc2c(=O)[nH]c(N)nc21 | - | Huh7 | - | EC90 | - | 0.033 µM
CC(C)Oc1ccc(-n2c(C(=O)NCc3ccccc3)c3n(c2=O)CCN(C(=O)/C=C/c2ccc(Cl)c(Cl)c2)C3)cc1 | - | HepG2.117 | PCR | EC50 | - | >5 µM
Nc1nc(=O)c2ncn([C@@H]3O[C@H](CO)[C@@H](O)[C@H]3O)c2c(=O)[nH]1 | - | 2.2.15 | antigen | inhibition | 10 µM | 33%
C#CCNC(=O)C(=O)c1c(Cl)c(C(=O)Nc2ccc(F)c(C#N)c2)n(C)c1C | - | HepG2.2.15 | PCR | EC50 | - | 0.001–0.0099 µM
CN(C)C(=O)NCC(=O)Nc1ccc(Cl)nc1Cl | - | HepG2.2.15 | PCR | EC90 | - | >100 µM
Nc1ccn([C@@H]2CS[C@H](CO)O2)c(=O)n1 | - | HepG2 | - | EC90 | - | 0.4 µM
CNS(=O)(=O)N1CC[C@@H](NS(=O)(=O)c2cn(C)c(C(=O)Nc3ccc(F)c(C(F)F)c3)c2F)C1 | - | HepAD38 cells | PCR | EC50 | - | <0.1 µM
Nc1ccn([C@H]2S[C@@H](CO)C=C2F)c(=O)n1 | - | HepAD38 | - | EC90 | - | >50 µM
CCONC(=O)C(=O)N1CC[C@@H](NS(=O)(=O)c2cn(C)c(C(=O)Nc3cc(F)c(F)c(F)c3)c2F)C1 | - | HepAD38 cells | PCR | EC50 | - | <0.1 µM
CCCCCCCCCC(=O)Nc1nc(N)nc2c1ncn2[C@H]1CO[C@@H](COP(=O)(N[C@@H](C)C(=O)OCC)Oc2ccccc2)O1 | - | HepAD38 | PCR | EC90 | - | ≥10 µM
Cc1c(C(=O)C(=O)NC2(c3cn(C4CC4)nn3)CC(F)(F)C2)c(C)n(C)c1C(=O)Nc1ccc(F)c(C(F)(F)F)c1 | - | HepG2.2.15 | PCR | EC50 | - | 0.001–0.0099 µM
O=C(CNC(=O)Nc1cccc(F)c1)Nc1ccc(Cl)nc1Cl | - | HepG2.2.15 | PCR | EC90 | - | 56 µM
COC(=O)Oc1nsnc1N1CCOCC1 | gtA | Huh7 | - | inhibition | 10 µM | >43%
CC[C@@H](C)NC(=O)C(=O)N1CCC(NS(=O)(=O)c2cn(C)c(C(=O)Nc3cc(F)c(F)c(F)c3)c2F)CC1 | - | HepAD38 cells | PCR | EC50 | - | <0.1 µM
O=C(CNC(=O)c1cccc(F)c1)Nc1ccc(Cl)nc1Cl | - | HepG2.2.15 | PCR | EC90 | - | >100 µM
C[C@@]12C(=O)N(CCCN3C(=O)[C@@]4(C)C5CCC(O5)[C@@]4(C)C3=O)C(=O)[C@]1(C)C1CCC2O1 | - | HepG2.2.15 | PCR | inhibition | 0.003 µM | <40%
Cc1sc2nc(-c3ccc([N+](=O)[O-])cc3)[nH]c(=O)c2c1C | gtD | Huh7 | - | inhibition | 10 µM | >43%
CCNC(=O)C(=O)N1CCC(NS(=O)(=O)c2cn(C)c(C(=O)Nc3cccc(Cl)c3)c2F)CC1 | - | HepAD38 cells | PCR | EC50 | - | <0.1 µM
CCCCCCCCCC(=O)Nc1nc(N)nc2c1ncn2[C@H]1CO[C@@H](CO)O1 | - | HepAD38 | PCR | EC90 | - | >10 µM
C[C@H]1CN(Cc2ccccc2)C(=O)c2c3n(c(=O)n2C1)CCN(C(=O)c1ccc(Br)c(Cl)c1)C3 | - | HepG2.117 | PCR | EC50 | - | 0.5–5 µM
CCCC(=O)Nc1nc(N)nc2c1ncn2[C@H]1CO[C@@H](COP(=O)(N[C@@H](C)C(=O)OCC)Oc2ccccc2)O1 | - | HepAD38 | PCR | EC90 | - | >10 µM
Cn1cnc2c(CNC(=O)c3c4n(c(=O)n3-c3ccc(OCC(F)(F)F)cc3)CCN(C(=O)c3ccc(Br)c(Cl)c3)C4)cccc21 | - | HepG2.117 | PCR | EC50 | - | 0.1–0.5 µM
COC1OC(CSc2nc(C)cc(=O)[nH]2)C(O)C1O | - | HepG2 2.2.15 | ELISA | inhibition | 100 µM | 27.7%
CCOC(=O)[C@H](C)NP(=O)(OC[C@@H]1OC[C@H](n2cnc3c(N)nc(N)nc32)O1)Oc1ccccc1 | Wild | AD38 | - | EC90 | - | 2.8 µM
COc1ccc2ccccc2c1/C=N/NC(=O)c1cc(O)c(O)c(O)c1 | gtD | Huh7 | - | inhibition | 10 µM | >43%
C#CC1(N(COC(=O)[C@@H](N)C(C)C)C(=O)C(=O)c2c(C)c(C(=O)Nc3ccc(F)c(C#N)c3)n(C)c2C)COC1 | - | HepG2.2.15 | PCR | EC50 | - | 0.001–0.0099 µM
CCOC(=O)[C@H](C)NP(=O)(OC[C@@H]1OC[C@H](n2cnc3c(Cl)nc(N)nc32)O1)Oc1ccccc1 | Wild | AD38 | - | EC90 | - | 6.8 µM
O=c1c(O)c(-c2ccc(O)c(O)c2)oc2cc(O)cc(O)c12 | - | HepG2.2.15 | ELISA / antigen | inhibition | 30 µM | 76.4%
C#CC1(NC(=O)C(=O)c2c(C)c(C(=O)Nc3ccc(F)c(C(F)(F)F)c3)n(C)c2C)COC1 | - | HepG2.2.15 | PCR | EC50 | - | <0.001 µM
COC1OC(Cn2c(C)cc(=O)nc2SC)C(O)C1O | - | HepG2 2.2.15 | ELISA | inhibition | 100 µM | 15.8%
C=C1C(COP(=O)(N[C@@H](C)C(=O)OC)Oc2ccccc2)C(O)C(F)C1n1cnc2c(N)ncnc21 | - | Huh7 | - | EC90 | - | 0.46 µM
C#CCNC(=O)C(=O)c1cc(C(=O)Nc2ccc(F)c(F)c2)n(C)c1 | - | HepAD38 | PCR | EC90 | - | >10 µM
Nc1nc(N)c2ncn([C@H]3CO[C@@H](CO)O3)c2n1 | - | HepAD38 | PCR | EC90 | - | >100 µM
O=C(CNC(=O)c1ccccn1)Nc1ccc(Cl)nc1Cl | - | HepG2.2.15 | PCR | EC90 | - | 15 µM

A second listing of 3 rows from above:

compound	strain or isolate	cell line	read by	read-out	tested at	value
Nc1ccn([C@@H]2CS[C@H](CO)O2)c(=O)n1	-	HepG2	-	EC90	-	0.4 µM
CN(CC(=O)Nc1ccc(Cl)cc1Cl)C(=O)c1ccccn1	-	HepG2.2.15	PCR	EC90	-	>100 µM
C#CC1(NC(=O)C(=O)c2c(C)c(C(=O)Nc3ccc(F)c(C(F)(F)F)c3)n(C)c2C)COC1	-	HepG2.2.15	PCR	EC50	-	<0.001 µM